Measured values reported in patent US5681800A, “Biodegradable branched synthetic ester base stocks and lubricants formed therefrom” (priority 1995, dated 1997).

System: sewage micro-organisms
Test: Biodegradation, Modified Sturm test (OECD 301B)
Conditions: for % Biodegradation (28 Days) / 10-Day Window: Table 8

| Molecule | % Biodegradation (28 Days) | 10-Day Window | % Biodegradation (Mod. Sturm) (Table 2) |
| --- | --- | --- | --- |
| CCCCCCCCCOC(=O)CCCCC(=O)OCCCCCCCCC [L9 Adipate, diester of adipic acid and nC9 alcohol] | 89.63% | yes | – |
| triester of trimethylolpropane and isostearic acid [TMP/iC18] | 63.32% | no | ~ 65% |
